Structures can show the parent of a compound that is named as a salt.
system: IL-8; test: U937 cell-based anti-inflammatory assay for influenza virus infection, IL-8 production (AlphaLISA); design: species or system human; conditions: ratio of CC50/IC50
Method: U937 cells were seeded in a 96-well culture plate at a density of 1.5 × 10^5 cells per well and incubated for 24 hours prior to virus infection. Subsequently, the cells in each well were infected with the PR8 virus at a multiplicity of infection of 0.05 and treated with serially diluted drugs or left untreated as a control. The drugs were serially diluted threefold, starting from an initial concentration of 200 µM down to 0.01 µM. […] Following this incubation, the supernatants were collected and subjected to AlphaLISA analysis to determine IL-8, IP-10, and MCP1 protein levels.
The AlphaLISA detection kits employed in this study were IL-8 (PerkinElmer AL224), IP-10 (PerkinElmer AL259), and MCP1 (PerkinElmer, AL244). U937 cell culture supernatants were measured for IL-8, IP-10, and MCP-1 protein levels using AlphaLISA assay as per the manufacturer’s recommendations. The ELISA and AlphaLISA plates were read using the Varioskan LUX multimode microplate reader (Thermo Scientiﬁc, Waltham, MA, USA).

Row | SMILES | SI IL-8
1 | Cc1cc(Nc2nc(N[C@@H](C)c3ccc(F)cc3)c(C#N)cc2F)[nH]n1 [AZ 960] | >1,200
2 | Cc1cc(Nc2nc(N[C@@H](C)c3ncc(F)cn3)ncc2Cl)n[nH]1 [AZD1480] | 12
3 | CN1CCN(c2cccc(Nc3nc4c(-c5ccc(S(C)(=O)=O)cc5)cccn4n3)c2)CC1 [CEP-33779] | 29
4 | CCS(=O)(=O)N1CCN(c2ccc(Nc3ncc(C(N)=O)c(NC4CC4)n3)cc2)CC1 [Cerdulatinib hydrochloride] | >700
5 | Cc1cc(Nc2cc(CN3CCOCC3)c3nc(C)c(Cc4ccc(Cl)cc4F)n3n2)n[nH]1 [Gandotinib] | >5,200
6 | N#CCNC(=O)c1ccc(-c2ccnc(Nc3ccc(N4CCOCC4)cc3)n2)cc1 [Momelotinib] | 18
7 | CNS(=O)(=O)C[C@H]1CC[C@H](N(C)c2ncnc3[nH]ccc23)CC1 [Oclacitinib maleate] | 1,000
8 | NC(=O)c1cnc2[nH]ccc2c1N[C@@H]1[C@@H]2CC3C[C@H]1C[C@@](O)(C3)C2 [Peficitinib] | 3,470
9 | N#CC[C@H](C1CCCC1)n1cc(-c2ncnc3[nH]ccc23)cn1 [Ruxolitinib] | 833
10 | N#CC[C@@H](C1CCCC1)n1cc(-c2ncnc3[nH]ccc23)cn1 [S-Ruxolitinib] | 3,333
11 | O=C(Nc1ccc(-c2ccnc(Nc3ccc(N4CCOCC4)cc3)n2)cc1)C1CCCN1 (centres unmarked) [XL019] | 52
